Results taken from article PMC2426711, “Pre-clinical development as microbicide of zinc tetra-ascorbo-camphorate, a novel terpenoid derivative: Potent in vitro inhibitory activity against both R5- and X4-tropic HIV-1 strains without significant in vivo mucosal toxicity” (AIDS Research and Therapy, 2008).
Where two headings read alike, the source gives them in different places.

What was measured:
[1] = test system: monocyte-derived macrophages (MΦ); experiment: MTT cytotoxicity assay on monocyte-derived macrophages; type: cell-based, human; conditions: 24 hours
T cells = experiment: MTT cytotoxicity assay on T cells; type: cell-based, human; conditions: 24 hours
[2] = test system: monocyte-derived dendritic cells (DC); experiment: MTT cytotoxicity assay on monocyte-derived dendritic cells; type: cell-based, human; conditions: 24 hours
cervicovaginal mucosa = conditions: for Epithelium (0–4) score / Infiltration of leucocytes (0–4) score / Vascular congestion (0–4) score: mean ± 1 SD
[3] = test system: primary cells (MDDC, T cells and MDM); conditions: overall statement
[4] = C14-HD, 20 μM, vaginally 1 ml per day, 10 days
[5] = C14-LD, 1 μM, vaginally 1 ml per day, 10 days

zinc tetra-ascorbo-camphorate [C14]
CC50 [1]: > 10 µM
CC50 (T cells): > 10 µM
CC50 [2]: > 10 µM
clinical observations (vaginal discharge, erythema, edema) (cervicovaginal mucosa; 1 or 20 μM, 10 days): no vaginal discharge, erythema or edema were noted
mortality (cervicovaginal mucosa; 1 or 20 μM, 10 days): no mortality
necrosis or vascular thrombi (cervicovaginal mucosa; 1 or 20 μM, 10 days): No necrosis or vascular thrombi were observed
Edeme (0–4) score (cervicovaginal mucosa; [4]): 0
Epithelium (0–4) score (cervicovaginal mucosa; [4]): 1.560 ± 1.667
Infiltration of leucocytes (0–4) score (cervicovaginal mucosa; [4]): 0.556 ± 0.880
Vascular congestion (0–4) score (cervicovaginal mucosa; [4]): 0.444 ± 1.330
erosion of the mucosal surface (cervicovaginal mucosa; C14-HD, 20 μM, two rabbits): local minimal erosion of the mucosal surface
grade of leukocyte infiltration and vascular congestion (cervicovaginal mucosa; C14-LD or C14-HD, 10 days): minimal
Edeme (0–4) score (cervicovaginal mucosa; [5]): 0
Vaginal irritation index (0–16) (cervicovaginal mucosa; C14-LD, 1 μM, vaginally 1 ml per day, 10 days, addition of the four scores): 2.1
Epithelium (0–4) score (cervicovaginal mucosa; [5]): 0.889 ± 1.270
Infiltration of leucocytes (0–4) score (cervicovaginal mucosa; [5]): 0.444 ± 0.520
Vascular congestion (0–4) score (cervicovaginal mucosa; [5]): 0.778 ± 1.394
CC50 [3]: > 10 µM
